# Results as given in US20220306702.
# Target: GST-TAB2 protein substrate [GST: P08515]
protein,measurement,value
wild-type NleE (EPEC NleE) (protein) MINPVTNTQGVSPINTKYAEHVVKNIYPEIKHDYFNESPNIYDKKYISGITRGVAELKQEEFVNEKARRFSYMKTMYSVCPEAFEPISRNEASTPEGSWLTVISGKRPMGQFSVDSLYNPDLHALCELPDICCKIFPKENNDFLYIVVVYRNDSPLGEQRANRFIELYNIKRDIMQELNYELPELKAVKSEMIIAREMGEIFSYMPGEIDSYMKYINNKLSKIE,"methylase activity in the presence of Formula A, B or C (MTase glo assay)",NLeE methylase activity was retained in the presence of all three formulations
